Anti-infective test results gathered from many reports (values: NIAID ChemDB through PubChem).

Shared fields: whole-cell or culture tests; species: HIV-1; cells: CEM; endpoint: EC50

a–b is a range or a potency band. Conditions beyond the fields shown may differ between rows. ECn is the concentration giving n% inhibition of infection, replication or growth. Blank or dashed fields: not listed here.

smiles	strain or isolate	mutations	method	value
Cc1ccc(C(C)S(=O)c2cccc[n+]2[O-])cc1	IIIB	-	syncytia	>0.032 µg/mL
O=C(O)CC(NC(=O)c1ccccc1SSc1ccccc1C(=O)NC(CC(=O)O)c1ccccc1)c1ccccc1	IIIB	-	cytopathic effect / XTT	6.9 µM
Cc1ccc(C)c(CSc2c(Cl)ccc[n+]2[O-])c1	IIIB	RT-E103K	syncytia	1.2 µg/mL
Cc1sccc1C(=S)Nc1ccc(Cl)c(OCC=C(Cl)Cl)c1	TIBO R82150-resistant (RT L100I)	RT-L100I	syncytia	0.065 µg/mL
Cc1ccc(C)c(C(C)S(=O)(=O)c2c(C)ccc[n+]2[O-])c1	IIIB	RT-Y181C	syncytia	≥20 µg/mL
CCCSC(=Nc1ccc(Cl)c(C(=O)OC(C)C)c1)OC(C)C	-	RT-V106A	syncytia	>27.78 µM
CCOCn1c(Sc2cc(C)cc(C)c2)c(CC)c(=O)[nH]c1=S	IIIB	RT-Y181I	syncytia	0.57 µM
CC(C)CN(C[C@@H](O)[C@H](Cc1ccccc1)NC(=O)OCc1ccccc1)S(=O)(=O)c1ccc2nonc2c1	IIIB	-	p24	<10 µM
Cc1ccc(C(C)S(=O)(=O)c2c(C)ccc[n+]2[O-])c(C)c1	RF	-	cytopathic effect	7.7 µg/mL
C=C(Cl)COc1cc(NC(=S)c2ccoc2C)ccc1Cl	TIBO R82150-resistant (RT L100I)	RT-L100I	syncytia	0.7 µg/mL
CCOCn1c(Sc2ccccc2)c(C(C)C)c(=O)[nH]c1=S	IIIB	RT-Y188H	syncytia	≥30 µM
CC(C)=CCOc1cc(NC(=S)c2ccoc2C)ccc1Cl	IIIB	RT-Y181C	syncytia	0.06 µg/mL
CC(C)CN(CC(O)CNc1cscc1S(=O)(=O)c1ccccc1)S(=O)(=O)c1ccccc1	IIIB	-	p24	<1 µM
O=C(O)C[C@H](CC1CCCCC1)NC(=O)c1ccccc1SSc1ccccc1C(=O)N[C@H](CC(=O)O)CC1CCCCC1	IIIB	-	cytopathic effect / XTT	6.4 µM
Cc1ccc(C)c(C(C#N)Sc2cccc[n+]2[O-])c1	IIIB	-	syncytia	>4 µg/mL
Cc1ccc(C)c(C(Cl)S(=O)(=O)c2cc(C)cc[n+]2[O-])c1	IIIB	-	cytopathic effect	0.48 µg/mL
CC(C)OC(=S)Nc1ccc(Cl)c(C(=O)O)c1	-	RT-V106A	syncytia	>36.53 µM
c1ccc(CSc2ccccn2)cc1	IIIB	-	syncytia	>20 µg/mL
CC[C@@H](C)OC(=S)Nc1ccc(Cl)c(C(=O)OC(C)C)c1	-	RT-E138K	syncytia	0.273 µM
O=C(c1ccccc1)N(CCc1ccccc1)C[C@H](O)CN(CC1CCCC1)S(=O)(=O)C1CS(=O)(=O)CC1O	IIIB	-	p24	<1 µM
COC(=S)Nc1ccc(Cl)c(C(=O)OC(C)C)c1	-	RT-L100I	syncytia	≥34.75 µM
Cc1ccc(C)c(C(C(N)=O)S(=O)(=O)c2cccc[n+]2[O-])c1	IIIB	-	syncytia	>20 µg/mL
C/C=C\COc1cc(NC(=S)OC(C)C)ccc1Cl	-	RT-L100I	syncytia	1.668 µM
CON(C)C(=O)[C@H](CC(C)C)NC(=O)c1ccccc1SSc1ccccc1C(=O)N[C@@H](CC(C)C)C(=O)N(C)OC	IIIB	-	cytopathic effect / XTT	>20 µM
CC1=C(C(=O)Nc2ccc(Cl)c(C(=O)OC(C)C)c2)SCCO1	-	RT-V106A	syncytia	>56.2 µM
Cc1occc1C(=O)Nc1ccc(Cl)c(SCC=C(Cl)Cl)c1	TIBO R82913-resistant (RT K103N)	RT-K103N	syncytia	2 µg/mL
CC(C)(C)NC(=O)N(Cc1ccccc1)CC(O)CN(CC1CCCC1)S(=O)(=O)c1ccccc1	IIIB	-	p24	<1 µM
COc1ccc[n+]([O-])c1SCc1cc(C)ccc1C	IIIB	-	syncytia	1.4 µg/mL
C/C(Cl)=C/COc1cc(NC(=O)c2ccoc2C)ccc1Cl	Nevirapine-resistant isolate (RT V106A)	RT-V106A	syncytia	0.15 µg/mL
O=C(O)CCC[C@H](NC(=O)c1ccccc1SSc1ccccc1C(=O)N[C@@H](CCCC(=O)O)C(=O)O)C(=O)O	IIIB	-	cytopathic effect / XTT	>100 µM
CC(c1ccc(Cl)cc1)S(=O)c1cccc[n+]1[O-]	IIIB	-	syncytia	>0.16 µg/mL
O=C(c1ccccc1)N(CCc1ccccc1)C[C@H](O)CN(CC1CCCC1)S(=O)(=O)C1CCCS(=O)(=O)C1	IIIB	-	p24	<1 µM
CCC1=C(C(=O)c2ccc(Cl)cc2)C(c2cccc(O)c2)NC(=O)N1	-	-	p24 / ELISA	>5 µM
CCOCn1c(Sc2ccccc2)c(CC)c(=O)[nH]c1=S	IIIB	RT-E138K	syncytia	0.13 µM
C=C(Cl)COc1cc(NC(=S)c2ccsc2C)ccc1C#N	HEPT-resistant (RT Y188H)	RT-Y188H	syncytia	2 µg/mL
CCC1=C(C(=O)OCC2CCCCC2)C(c2ccc(C(=O)O)cc2)NC(=O)N1	-	-	p24 / ELISA	>5 µM
CC1=C(C(=O)Nc2ccc(Cl)c(C(=O)OC(C)C)c2)SCCO1	IIIB	RT-Y181C	syncytia	42 µM
CC(C)c1ccc(C(C)C)c(CS(=O)c2cccc[n+]2[O-])c1	IIIB	-	syncytia	≥4 µg/mL
C#CCOC(=O)c1cc(NC(=S)OC(C)C)ccc1Cl	-	RT-Y181C	syncytia	≥32.07 µM
Cc1ccc(C)c(CS(=O)(=O)c2cccc[n+]2[O-])c1	IIIB	RT-Y188H	syncytia	8.8 µg/mL
CC(=O)COc1cc(NC(=S)OC(C)C)ccc1Cl	-	RT-V106A	syncytia	16.57 µM
CCc1c(Sc2cc(C)cc(C)c2)n(COCc2ccccc2)c(=S)[nH]c1=O	IIIB	Nevirapine resistant (RT Y181C)	syncytia	0.04 µM
O=S(=O)(Cc1ccccc1I)c1cccc[n+]1[O-]	IIIB	RT-K103N	syncytia	9 µg/mL
CC(C)CN(C[C@@H](O)[C@H](Cc1ccccc1)NC(=O)O[C@H]1CCOC1)S(=O)(=O)c1ccc(-c2ccon2)s1	IIIB	-	p24	<1 µM
CO/N=C(\C)COc1cc(NC(=S)OC(C)C)ccc1Cl	-	RT-L100I	syncytia	3.023 µM
CC(C)C[C@H](NC(=O)c1ccccc1SSc1ccccc1C(=O)N[C@@H](CC(C)C)C(=O)O)C(=O)O	IIIB	-	cytopathic effect / XTT	8.9 µM
Cc1ccc(C)c(C(Br)S(=O)(=O)c2cccc[n+]2[O-])c1	IIIB	-	syncytia	20.7 µg/mL
CCOCn1c(Sc2cc(C)cc(C)c2)c(CC)c(=O)[nH]c1=O	IIIB	Nevirapine resistant (RT Y181C)	syncytia	0.09 µM
CN1CCN(C(=O)c2ccc3c(=O)c4ccccc4[nH]c3c2)CC1	-	RT-L100I	syncytia	1.212 µM
COc1ccc(S(=O)(=O)N(Cc2ccccc2)CC(O)CN(CC2CCCC2)S(=O)(=O)c2ccccc2)cc1	IIIB	-	p24	<1 µM
CC(C)c1c(Sc2ccccc2)n(COCc2ccccc2)c(=O)[nH]c1=O	IIIB	Nevirapine resistant (RT Y181C)	syncytia	0.25 µM
CC(=O)Nc1nc(C)c(S(=O)(=O)N(Cc2ccccc2)C[C@@H](O)[C@H](Cc2ccccc2)NC(=O)[C@H](CC(N)=O)NC(=O)c2ccc3ccccc3n2)s1	IIIB	-	p24	<1 µM
COC(=O)C(c1ccccc1C)S(=O)c1cccc[n+]1[O-]	IIIB	-	syncytia	>20 µg/mL
CCC1=C(C(=O)OCC2CCCCC2)[C@H](c2cccc(OC(C)=O)c2)NC(=O)N1	-	-	p24 / ELISA	≤1 µM
COC(=O)CC[C@H](CC#N)NC(=O)c1ccccc1SSc1ccccc1C(=O)N[C@@H](CC#N)CCC(=O)OC	IIIB	-	cytopathic effect / XTT	5.2 µM
Cc1occc1C(=O)Nc1ccc(Cl)c(/C=N/N(C)C)c1	R82913-resistant (RT K103N)	RT-K103N	syncytia	<2 µg/mL
CC(C)OC(=S)Nc1ccc(Cl)c(C(=O)OCc2ccccc2)c1	-	RT-E138K	syncytia	1.786 µM
O=C(N[C@@H](Cc1ccccc1)[C@H](O)CN(CC1CCCC1)S(=O)(=O)c1ccc(OC(F)(F)F)cc1)O[C@H]1CCOC1	IIIB	-	p24	<10 µM
COc1ccc(NC(=O)C2=C(C)OCCS2)cc1OCC=C(Cl)Cl	TIBO R82150-resistant (RT L100I)	RT-L100I	syncytia	10 µg/mL
C#CCOc1cc(NC(=S)OC(C)C)ccc1Cl	-	RT-V106A	syncytia	1.762 µM
Cc1ccc(CSc2ccccn2)cc1C	IIIB	-	syncytia	>4 µg/mL
COc1ccc(C)cc1CS(=O)(=O)c1cccc[n+]1[O-]	IIIB	RT-L100I	syncytia	40 µg/mL
CC(CC(=O)O)NC(=O)c1ccccc1SSc1ccccc1C(=O)NC(C)CC(=O)O	IIIB	-	cytopathic effect / XTT	29.9 µM
C/C(Cl)=C/COc1cc(NC(=S)c2ccoc2C)ccc1Cl	IIIB	-	syncytia	0.003 µg/mL
Cc1ccccc1CS(=O)c1cccc[n+]1[O-]	IIIB	-	syncytia	≥20 µg/mL
CC(C)OC(=O)c1cc(NC(=S)OCC2(C)COC2)ccc1Cl	-	RT-V106A	syncytia	>29.94 µM
Cc1cccc(CS(=O)(=O)c2cccc[n+]2[O-])c1	IIIB	RT-E103K	syncytia	≥20 µg/mL
CSCCOC(=S)Nc1ccc(Cl)c(C(=O)OC(C)C)c1	IIIB	-	syncytia	1.294 µM
Cc1occc1C(=S)Nc1ccc(Cl)c(/C=N/OC(C)(C)C)c1	IIIB	RT-V106A	syncytia	0.37 µM
N#C/C(=C/c1ccc(Cl)cc1Cl)Sc1cccc[n+]1[O-]	IIIB	-	syncytia	>0.8 µg/mL
CCC(=O)C1=C(Cc2ccccc2)NC(=O)N[C@H]1c1ccc(O)c(Cl)c1	-	-	p24 / ELISA	>5 µM
CCCC[C@@H](CCC(=O)O)NC(=O)c1ccccc1SSc1ccccc1C(=O)N[C@@H](CCCC)CCC(=O)O	IIIB	-	cytopathic effect / XTT	4.1 µM
Cc1ccc(C)c(C(C)S(=O)(=O)c2c(C)ccc[n+]2[O-])c1	-	RT-Y181C	cytopathic effect	≥20 µg/mL
C=CCOc1cc(NC(=S)OC(C)C)ccc1C#N	-	RT-Y181C	syncytia	2.352 µM
C=CCOC(=O)N[C@@H](Cc1ccccc1)[C@H](O)CN(CC(C)C)S(=O)(=O)c1ccc(Cl)c(Cl)c1	IIIB	-	p24	<10 µM
CC(C)OC(=S)Nc1ccc(Cl)c(COC(C)(C)C)c1	-	RT-Y181C	syncytia	>31.66 µM
CCc1c(Sc2cc(C)cc(C)c2)n(COCCO)c(=S)[nH]c1=O	IIIB	RT-Y181I	syncytia	1 µM
CCC1=C(C(=O)OCC2CCCCC2)C(c2cc(N)ccc2Cl)NC(=O)N1	-	-	p24 / ELISA	>5 µM
Cc1ccc(C)c(CSc2c(Cl)ccc[n+]2[O-])c1	-	RT-Y181C	cytopathic effect	≥20 µg/mL
CC[C@H](C)[C@@H](/C=C/C(=O)O)NC(=O)c1ccccc1SSc1ccccc1C(=O)N[C@H](/C=C/C(=O)O)[C@@H](C)CC	IIIB	-	cytopathic effect / XTT	5 µM
C=CCSc1cc(NC(=S)OC(C)C)ccc1Cl	-	RT-E138K	syncytia	0.287 µM
CCC1=C(C(=O)OCC2CCCCC2)C(c2cccc([N+](=O)[O-])c2)NC(=O)N1	-	-	p24 / ELISA	≤1 µM
Cc1ccccc1C(C#N)S(=O)c1cccc[n+]1[O-]	IIIB	-	syncytia	>0.16 µg/mL
Cc1cc(C)c(CS(=O)c2cccc[n+]2[O-])c(C)c1	IIIB	-	-	<40 µg/mL
CC(C)CN(C[C@@H](O)[C@H](Cc1ccccc1)NC(=O)O[C@H]1CCOC1)S(=O)(=O)c1ccc(Cl)c(Cl)c1	IIIB	-	p24	<1 µM
COCCOC(=S)Nc1ccc(Cl)c(C(=O)OC(C)C)c1	-	RT-L100I	syncytia	18.08 µM
Cc1ccc(C(C)S(=O)(=O)c2c(C)ccc[n+]2[O-])c(C)c1	IIIB	RT-L100I	syncytia	60 µg/mL
C#CC1=C(C(=O)OCC2CCCCC2)C(c2cccc(O)c2)NC(=O)N1	-	-	p24 / ELISA	1–5 µM
Cc1ccc(C)c(CS(=O)(=O)c2ccccn2)c1	HE	-	syncytia	14 µg/mL
Cc1ccccc1C(Sc1cccc[n+]1[O-])C(N)=O	IIIB	-	syncytia	>100 µg/mL
O=C(c1ccccc1)N(CCc1ccccc1)C[C@H](O)CN(CC1CCCC1)S(=O)(=O)c1ccncc1	IIIB	-	p24	<1 µM

Repeating the first 11 entries:

smiles	strain or isolate	mutations	method	value
Cc1ccc(C(C)S(=O)c2cccc[n+]2[O-])cc1	IIIB	-	syncytia	>0.032 µg/mL
O=C(O)CC(NC(=O)c1ccccc1SSc1ccccc1C(=O)NC(CC(=O)O)c1ccccc1)c1ccccc1	IIIB	-	cytopathic effect / XTT	6.9 µM
Cc1ccc(C)c(CSc2c(Cl)ccc[n+]2[O-])c1	IIIB	RT-E103K	syncytia	1.2 µg/mL
Cc1sccc1C(=S)Nc1ccc(Cl)c(OCC=C(Cl)Cl)c1	TIBO R82150-resistant (RT L100I)	RT-L100I	syncytia	0.065 µg/mL
Cc1ccc(C)c(C(C)S(=O)(=O)c2c(C)ccc[n+]2[O-])c1	IIIB	RT-Y181C	syncytia	≥20 µg/mL
CCCSC(=Nc1ccc(Cl)c(C(=O)OC(C)C)c1)OC(C)C	-	RT-V106A	syncytia	>27.78 µM
CCOCn1c(Sc2cc(C)cc(C)c2)c(CC)c(=O)[nH]c1=S	IIIB	RT-Y181I	syncytia	0.57 µM
CC(C)CN(C[C@@H](O)[C@H](Cc1ccccc1)NC(=O)OCc1ccccc1)S(=O)(=O)c1ccc2nonc2c1	IIIB	-	p24	<10 µM
Cc1ccc(C(C)S(=O)(=O)c2c(C)ccc[n+]2[O-])c(C)c1	RF	-	cytopathic effect	7.7 µg/mL
C=C(Cl)COc1cc(NC(=S)c2ccoc2C)ccc1Cl	TIBO R82150-resistant (RT L100I)	RT-L100I	syncytia	0.7 µg/mL
CCOCn1c(Sc2ccccc2)c(C(C)C)c(=O)[nH]c1=S	IIIB	RT-Y188H	syncytia	≥30 µM